# For at least one entry, the source does not settle the construct or the ends of the probe. For part of these data: A negative result means that nothing was seen under these conditions. For part of these data: Tags and fusion partners may be left off the protein sequences shown.
# Key:
# [1] = tested on: HemO (Pseudomonas aeruginosa); assay: EMSA; conditions: apo-HemO; EMSA: 100 mM Tris pH 8.0, 500 mM NaCl, 10% glycerol, 10 ng/ml salmon sperm DNA, 37 C, 30 pM DNA; recombinant protein; label: 5'-biotin
# [2] = biological target: PhuS H212R (Pseudomonas aeruginosa PAO1) (UniProt O68880); assay: fluorescence anisotropy; conditions: holo-PhuS H212R titrated with apo-HemO, 5:1 HemO needed; FA: 20 mM Tris-HCl pH 8.0, 100 mM NaCl, 0.05 mg/ml BSA, 10 nM DNA (Fur: 10 mM bis-Tris borate pH 7.5, 40 mM KCl, 0.1 mM MnSO4, 0.1 mg/ml BSA, 10% glycerol); recombinant protein; label: 5'-6FAM
# [3] = biological target: T1, PhuS (Pseudomonas aeruginosa PAO1) (UniProt O68880); assay: fluorescence anisotropy; conditions: apo-PhuS; FA: 20 mM Tris-HCl pH 8.0, 100 mM NaCl, 0.05 mg/ml BSA, 10 nM DNA (Fur: 10 mM bis-Tris borate pH 7.5, 40 mM KCl, 0.1 mM MnSO4, 0.1 mg/ml BSA, 10% glycerol); recombinant protein; label: 5'-6FAM
# T1 sequence (looked up, limits assumed): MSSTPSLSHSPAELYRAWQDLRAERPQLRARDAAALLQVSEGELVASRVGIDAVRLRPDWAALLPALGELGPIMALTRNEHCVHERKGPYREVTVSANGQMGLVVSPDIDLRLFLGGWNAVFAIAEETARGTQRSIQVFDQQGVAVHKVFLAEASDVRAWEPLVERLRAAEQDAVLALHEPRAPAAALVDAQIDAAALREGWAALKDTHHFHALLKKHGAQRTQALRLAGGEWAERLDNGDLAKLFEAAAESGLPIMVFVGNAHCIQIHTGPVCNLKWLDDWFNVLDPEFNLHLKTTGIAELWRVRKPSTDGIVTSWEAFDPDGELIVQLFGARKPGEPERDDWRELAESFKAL
sequence,measurement,setting,value
AGCAGAAAAGTTTGGCGAAAGCGTTTGACATGGAAATGAGAATCATTATT (double strand) [prrF1-50 (biotin)],binding result,[1],no binding
AGCAGAAAAGTTTGGCGAAAGCGTTTGACATGGAAATGAGAATCATTATT (double strand) [prrF1-50 (FAM)],binding result,[2],binds
GCCTGCGATTCGGCCGGAGACGACCGTTCATCGGCTGGCGATGGAATGAA (double strand) [prrF2-50 (AlgR)],binding result,[3],no binding
